Measured data: PubChem BioAssay AID504761 (Drosophila RNAi Screening Center, 2011)
Test: 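Insect host genes that dengue virus relies on to spread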 (primary screen). Cells: D.Mel-2 cells from Drosophila. Knock-down reagent: long dsRNA against Drosophila genes. Conditions: infection with dengue virus type 2; dose and infection time not stated. Read-out: 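Per well on two replicate plates, imaging gave the percent of cells positive for viral envelope protein, ranked by infection, and a nuclear count of cells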. Reading the numbers: infection score: higher = more virus-infected cells; cell count: higher = more cells in the well. Hit rule: 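Very low infection ranking in both replicate wells (chance probability at most 0.065), then a retest showing infection dropped 1.5-fold or more at p below 0.05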. Calls: active = confirmed: knock-down lowers infection; inactive = not picked or not confirmed.
The deposit covers about 22,000 reagents; below is a random part of those that have a named target and a result. In the full data, 116 (0.52%) got an active call. 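Calls depend on retest data that are not deposited; infection was ranked per plate without normalising between plates; the unit of the infection score is not given.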 Raw values are not corrected between plates. No sequences are given here. The record does not give: the amount of reagent, the time to read-out.

no.	Target gene	DRSC id	infection score, replicate 1	infection score, replicate 2	cell count, replicate 1	cell count, replicate 2	activity call
1	Spt3	DRSC15465	4.83	9.86	6189	6642	inactive
2	Spt3	DRSC25502	2.4	1.36	6672	6763	inactive
3	CG13912	DRSC08381	3.3	2.67	6117	6063	inactive
4	CG9988	DRSC16587	3.06	4.98	2840	6632	inactive
5	CG13066	DRSC09949	1.08	1.24	6323	6715	inactive
6	CG32148	DRSC09338	9.24	6.29	6301	6561	inactive
7	CG32148	DRSC28787			309	399	inactive
8	arr (arrow)	DRSC07451		1.13	409	617	inactive
9	arr (arrow)	DRSC27035	1.95	2.25	6761	6579	inactive
10	CG12121	DRSC17816	6.2	5.55	6456	6234	inactive
11	jtb (jetboil)	DRSC06868	32.5	26.7	3733	2913	inactive
12	Oatp30B (Organic anion transporting polypeptide 30B)	DRSC02727	7.16	12.3	6191	5818	inactive
13	Cdk8 (Cyclin-dependent kinase 8)	DRSC11113	10.5	2.45	5860	5953	inactive
14	Cdk8 (Cyclin-dependent kinase 8)	DRSC28684	22.1	19.4	3560	3922	inactive
15	CG10866	DRSC08171	0.92	3.28	6433	5522	inactive
16	CG10866	DRSC29672	0.27	8.78	377	1537	inactive
17	CG31870	DRSC21681	2.07	2.43	5790	6427	inactive
18	CG31870	DRSC27838	13.8	35.9	3238	5910	inactive
19	CG7860	DRSC20060	2.81	2.84	6802	6875	inactive
20	Qsox2 (Quiescin sulfhydryl oxidase 2)	DRSC15287	1.78	1.69	6507	6553	inactive
21	Qsox2 (Quiescin sulfhydryl oxidase 2)	DRSC26634	2.37	6.23	6111	5840	inactive
22	hrg (hiiragi)	DRSC07502	8.17	6.06	4776	5036	inactive
23	CG13404	DRSC19536	7.31	5.09	5771	5976	inactive
24	CG17075	DRSC00483	3	20.9	5930	5181	inactive
25	CG17075	DRSC26505	1.12	0.92	6416	5653	inactive
26	AP-1gamma (Adaptor Protein complex 1, gamma subunit)	DRSC18433	15	31.1	2943	4302	inactive
27	CG7017	DRSC10762	4.66	5.61	6607	6738	inactive
28	mfrn (mitoferrin)	DRSC15687		2.4	345	1622	inactive
29	Pits (Protein interacting with Ttk69 and Sin3A)	DRSC19385	2.12	2.24	6370	6771	inactive
30	Pits (Protein interacting with Ttk69 and Sin3A)	DRSC25013	2.99	2.21	6285	6117	inactive
31	CG11929	DRSC00339	5.46	7.14	6780	7292	inactive
32	CG3277	DRSC00588	2.62	2.27	6572	6884	inactive
33	sut1 (sugar transporter 1)	DRSC07700	11.8	8.38	5452	6290	inactive
34	CG13445	DRSC09992	1.16	5.71	6145	5513	inactive
35	CG13445	DRSC25076	5.06	5.74	6818	6463	inactive
36	CG8818	DRSC07275	5.31	8.88	6137	6522	inactive
37	CG8818	DRSC28138	15.8	16	6287	6219	inactive
38	atlas	DRSC04183	20.2	22.2	4835	4431	inactive
39	Blos1	DRSC05970	6.75	3.68	6624	6492	inactive
40	Tektin-A (Tektin A)	DRSC01921	8.91	8.53	6339	6285	inactive
41	LSm7 (Like Sm 7)	DRSC02251	9.77	17.9	5058	5132	inactive
42	cta (concertina)	DRSC03769	8.72	14.4	6730	6379	inactive
43	Fer1 (48 related 1)	DRSC12507	7.07	2.1	5885	6338	inactive
44	Fer1 (48 related 1)	DRSC12555	3	2.15	6073	6480	inactive
45	Fer1 (48 related 1)	DRSC29849	6.41	1.91	6314	6183	inactive
46	Pak3	DRSC15017	9.67	6.07	5883	6194	inactive
47	Pak3	DRSC26832	2.58	9.2	5692	5913	inactive
48	CG34434	DRSC18134	0.7	0.58	6416	6674	inactive
49	CG34434	DRSC26923	4.42	16.5	3890	6054	inactive
50	CG34434	DRSC28486			447	378	inactive
51	ImpE2 (Ecdysone-inducible gene E2)	DRSC08665	11.7		4479	473	inactive
52	ImpE2 (Ecdysone-inducible gene E2)	DRSC28588	6.75	7.57	2236	3063	inactive
53	CG12436 (retired record)	DRSC09869	2.67	2.14	6107	6315	inactive
54	CG12436 (retired record)	DRSC09885	0.73	0.69	5513	5679	inactive
55	CG12436 (retired record)	DRSC26831	6.64	13.7	4685	6316	inactive
56	Gr23a (Gustatory receptor 23a)	DRSC27488	7.11	9.7	1970	6214	inactive
57	NdufV3 (NADH:ubiquinone oxidoreductase subunit V3)	DRSC19423	0.22	8.36	445	5334	inactive
58	NdufV3 (NADH:ubiquinone oxidoreductase subunit V3)	DRSC27236	6.95	4.92	6890	6569	inactive

Ordered by “cell count, replicate 2” (lowest first): 6 of the entries above.
Target gene	DRSC id	infection score, replicate 1	infection score, replicate 2	cell count, replicate 1	cell count, replicate 2	activity call
mfrn (mitoferrin)	DRSC15687		2.4	345	1622	inactive
AP-1gamma (Adaptor Protein complex 1, gamma subunit)	DRSC18433	15	31.1	2943	4302	inactive
CG17075	DRSC00483	3	20.9	5930	5181	inactive
CG17075	DRSC26505	1.12	0.92	6416	5653	inactive
CG13404	DRSC19536	7.31	5.09	5771	5976	inactive
CG7017	DRSC10762	4.66	5.61	6607	6738	inactive
